From US20060073067A1, “Peracid-based large-area decontamination” (published 2006)

Tested on: Bacillus anthracis Vollum 1B
Assay: Surviving CFU/ml of Bacillus anthracis Vollum 1B after exposure to PAB
Conditions: 15 minutes exposure to 65 mg/ml PAB; starting concentration 4×10^6 or 6×10^7 CFU/ml

acetyl peroxyborate
decontamination effectiveness (surviving CFU/ml, FIGS. 2 and 3): effective decontaminant
